Pooled drug test results. Numbers come from NIAID ChemDB, via PubChem.

Shared fields: growth or infection tests; agent: Mycobacterium tuberculosis

Conditions beyond the fields shown may differ between rows. MIC bound comes from a single tested concentration. Percent inhibition refers to the dose given; in toxicity tests it is the harm to the cells.

Cc1cc(-c2cc3c(cc2F)c(=O)c(C(=O)O)cn3C2CC2)cc(C)n1 ; strain: 126-4 ; endpoint: MIC ; result: 4 µg/mL
C/C(=N\NC(=O)c1ccncc1)c1cccc(Cl)c1 ; strain: H37Rv ; endpoint: MIC ; result: >20 µg/mL
O=C(Oc1ccc(Br)cc1C(=O)Nc1ccc(C(F)(F)F)cc1)c1cnccn1 ; conditions: 21 d ; strain: H37Rv 331/88 ; endpoint: MIC ; result: 1 µM
CCCCSC1=C(C#N)C(=O)NC(C)S1 ; strain: Clinical isolate ; endpoint: MIC ; method: resazurin ; result: 16 µg/mL
O=C(/C=C/c1ccc(F)cc1)c1ccc(F)cc1 ; conditions: 21 d ; strain: H37Rv ; endpoint: MIC ; method: MTT ; result: 64 µg/mL
C/C(=N\NC(=O)c1ccncc1)c1ccc(F)cc1 ; strain: Rifampicin-resistant ; endpoint: MIC ; result: 0.2 µg/mL
CCOc1ccc(N2C(=O)CS/C2=N\NC(=O)COc2cnccn2)cc1 ; strain: H37Rv ; endpoint: MIC ; result: 169 µg/mL
CO/C(=N\N=C\c1ccc(OC)c(OC)c1)c1ccncc1 ; strain: 16PI ; endpoint: MIC ; result: >20 µg/mL
CCOc1ccc(NC(=O)OCC[NH+]2CCCC2)cc1 ; strain: My 331/88 ; endpoint: MIC ; result: 1000 µM
COc1ccc(CCc2cc(OC)c3ccccc3n2)cc1OC ; strain: MT5 ; endpoint: MIC ; result: 25 µg/mL
Cc1cccc(-n2nc([N+](=O)[O-])c(=Nc3ccc(C)cc3C)n2O)c1 ; strain: Clinical isolate ; endpoint: MIC ; method: resazurin ; result: 8 µg/mL
COC(=O)c1cnccn1 ; conditions: 14 d ; strain: 331/88 ; endpoint: MIC ; result: >500 µM
O=C(O)CCc1nc(-c2ccccc2-n2cccc2)no1 ; strain: H37Rv ; tested at: 6.25 µg/mL ; endpoint: inhibition ; method: BACTEC ; result: 0%
CO[C@H]1/C=C/O[C@@]2(C)Oc3c(C)c(O)c4c(O)c(c(/C=N/N5CCN(C)CC5)c(O)c4c3C2=O)NC(=O)/C(C)=C\C=C\[C@H](C)[C@H](O)[C@@H](C)[C@@H](O)[C@@H](C)[C@H](OC(C)=O)[C@@H]1C ; strain: Aoyama B ; endpoint: MIC ; result: 5 µg/mL
CC1CCN(C(=O)c2ccc(NC(=O)C3CC(=O)OC34CCCCC4)cc2)CC1 ; strain: Clinical isolate ; endpoint: MIC ; method: resazurin ; result: 8 µg/mL
CN1c2ccccc2CCC1CCc1ccc2c(c1)OCO2 ; strain: MT5 ; endpoint: MIC ; result: >339 µg/mL
CO[C@H]1/C=C/O[C@@]2(C)Oc3c(C)c(O)c4c(=O)c(c5oc6cc(N7CCN(C(C)C)CC7)cc(=O)c6nc5c4c3=C2O)NC(=O)/C(C)=C\C=C\[C@H](C)[C@H](O)[C@@H](C)[C@@H](O)[C@@H](C)[C@H](OC(C)=O)[C@@H]1C ; strain: 2230 (rifampin-resistant) ; endpoint: MBC ; result: 0.4 µg/mL
O=C(Oc1ccc(Cl)cc1C(=O)Nc1ccc(Cl)c(Cl)c1)c1cnccn1 ; conditions: 21 d ; strain: multidrug resistant 9449/2006 ; endpoint: MIC ; result: 0.5 µM
O=C(O)C1OC(Oc2ccc3oc4ccccc4c(=O)c3c2)C(O)C(O)C1O ; strain: H37Rv ; endpoint: MIC bound ; method: BACTEC ; result: >12.5 µg/mL
C[C@H]1COc2c(N3CCN(C)CC3)c(F)cc3c(=O)c(C(=O)O)cn1c23 ; strain: Clinical isolate BRF 7 ; mutations: SM-resistant ; endpoint: MIC ; method: resazurin ; result: 0.25 µg/mL
COC(=O)C1(C)Cc2ccccc2C(=O)O1 ; strain: 18b ; endpoint: MIC ; method: resazurin ; result: 2 µg/mL
O=C(NNCc1cccc(C(F)(F)F)c1)c1ccncc1 ; strain: H37Rv (thiacetazone-resistant) ; endpoint: MIC ; result: >31.25 µg/mL
C=C1C(=O)OC2C1CCC(C)C1(O)C=CC(=O)C21C ; strain: H37Rv ; endpoint: MIC bound ; method: BACTEC ; result: >12.8 µg/mL
c1ccc(CC2Nc3ccccc3S2)cc1 ; strain: H37Rv ; endpoint: MIC ; result: 50 µg/mL
Cc1ccc(C(=O)/C=C/c2ccccc2)cc1 ; conditions: 7 d ; strain: H37Rv ; endpoint: MIC ; method: MTT ; result: 32 µg/mL
CC(CN(C)C)C(/C=C/c1ccc(Cl)cc1)=N/NC(=O)c1ccccc1.Cl ; strain: H37Rv ; tested at: 12.5 µg/mL ; endpoint: inhibition ; method: BACTEC ; result: 37%
COc1ccc(NC(=O)OCC[NH+]2CCCC2)cc1 ; strain: My 331/88 ; endpoint: MIC ; result: 1000 µM
c1coc(-c2nc3ccccc3s2)c1 ; strain: H37Rv ; tested at: 6.25 µg/mL ; endpoint: inhibition ; method: BACTEC ; result: 0%
CC(NNC(=O)c1ccncc1)c1ccc(F)cc1 ; strain: H37Rv (ethambutol-resistant) ; endpoint: MIC ; result: ≤0.49 µg/mL
CCc1c(O)n(Cc2ccccc2)c(=S)n(Cc2nc3ccccc3[nH]2)c1=O ; strain: H37Rv ; tested at: 12.5 µg/mL ; endpoint: inhibition ; method: BACTEC ; result: 0%
O=C(/C=C/c1ccc(F)cc1)c1ccc(O)cc1 ; conditions: 14 d ; strain: H37Rv ; endpoint: MIC ; method: MTT ; result: 32 µg/mL
O=C(Oc1cc(Cl)ccc1C(=O)Nc1ccc(C(F)(F)F)cc1)c1cnccn1 ; conditions: 14 d ; strain: multidrug resistant 53/2009 ; endpoint: MIC ; result: 0.125 µM
C[C@]1(COc2ccc(N3CCC(Oc4ccc(OC(F)(F)F)cc4)CC3)cc2)Cn2cc([N+](=O)[O-])nc2O1 ; strain: H37Rv (RFP-resistant) ; endpoint: MIC ; result: 0.006 µg/mL
CC(=O)Nc1cc2c(O)c(N=Nc3ccc(C(=O)Nc4ccc(N=Nc5ccc(S(=O)(=O)O)cc5)cc4)cc3)c(S(=O)(=O)O)cc2cc1S(=O)(=O)O ; strain: H37Rv ; endpoint: MIC bound ; method: BACTEC ; result: >12.5 µg/mL
O=[N+]([O-])c1cn2c(n1)OC[C@@H](OCc1ccc(OC(F)(F)F)cc1)C2 ; strain: H37Rv-T3 (PA-824-resistant) ; endpoint: MIC ; result: >100 µM
COc1ccccc1NC(=O)OCCN(C)C ; strain: My 331/88 ; endpoint: MIC ; result: >1000 µM
O=C(COc1cnccn1)NNC(=S)Nc1ccc(Cl)cc1Cl ; strain: H37Rv ; endpoint: MIC ; result: 57 µg/mL
CC1(C(=O)Nc2cccc(Cl)c2Cl)Cc2ccccc2C(=O)O1 ; strain: 18b ; endpoint: MIC ; method: resazurin ; result: 8 µg/mL
O=C(Oc1ccc(Cl)cc1C(=O)Nc1ccc(C(F)(F)F)cc1)c1cnccn1 ; conditions: 21 d ; strain: multidrug resistant 9449/2006 ; endpoint: MIC ; result: 0.25 µM
Clc1cccc2c1NC(c1ccccn1)S2 ; strain: H37Rv ; endpoint: MIC ; result: 3.1 µg/mL
C/C(=N\NC(=O)c1ccncc1)c1cccc(F)c1 ; strain: 16PI ; endpoint: MIC ; result: >20 µg/mL
CO[C@H]1/C=C/O[C@@]2(C)Oc3c(C)c(O)c4c(O)c(c(/C=N/N5CCN(C6CCCC6)CC5)c(O)c4c3C2=O)NC(=O)/C(C)=C\C=C\[C@H](C)[C@H](O)[C@@H](C)[C@@H](O)[C@@H](C)[C@H](OC(C)=O)[C@@H]1C ; strain: Isolate 910328 rifampicin-resistant ; endpoint: MIC ; result: 64 µg/mL
Cc1ccc2c(c1)NC(c1ccccn1)S2 ; strain: H37Rv ; endpoint: MIC ; result: 3.1 µg/mL
CCCCCOc1ccc(NC(=O)OCC[NH+]2CCCC2)cc1 ; strain: My 331/88 ; endpoint: MIC ; result: 62.5 µM
COc1cccc(/C=C/C(=O)c2ccc(F)cc2)c1F ; strain: H37Rv ; endpoint: MIC ; method: MTT ; result: 32 µg/mL
CO/C(=N\N=C\c1cccc(C(C)(F)F)c1)c1ccncc1 ; strain: 16PI ; endpoint: MIC ; result: >20 µg/mL
O=C(COc1cnccn1)NNC(=S)Nc1ccc(Cl)cc1[N+](=O)[O-] ; strain: H37Rv ; endpoint: MIC ; result: 61 µg/mL
C=C=C(CCCC)C(=O)O ; strain: H37Rv ; tested at: 12.5 µg/mL ; endpoint: inhibition ; method: BACTEC ; result: 0%
CCC1Cn2cc([N+](=O)[O-])nc2O1 ; strain: H37Rv-5A2 (PA-824-resistant) ; endpoint: MIC ; result: >100 µM
NNc1ccc2nccn2n1 ; strain: H37Rv ; tested at: 12.5 µg/mL ; endpoint: inhibition ; method: BACTEC ; result: 0%
CO[C@H]1/C=C/O[C@@]2(C)Oc3c(C)c(O)c4c(=O)c(c5oc6cc(N7CCN(CC(C)C)CC7)cc(=O)c6nc5c4c3=C2O)NC(=O)/C(C)=C\C=C\[C@H](C)[C@H](O)[C@@H](C)[C@@H](O)[C@@H](C)[C@H](OC(C)=O)[C@@H]1C ; strain: Kurono ; endpoint: MIC ; result: 0.002 µg/mL
CO[C@H]1/C=C/O[C@@]2(C)Oc3c(C)c(O)c4c(O)c(c(/C=N/N5CCN(C)CC5)c(O)c4c3C2=O)NC(=O)/C(C)=C\C=C\[C@H](C)[C@H](O)[C@@H](C)[C@@H](O)[C@@H](C)[C@H](OC(C)=O)[C@@H]1C ; strain: PR1370 ; endpoint: MIC ; result: 0.04 µg/mL
FC(F)(F)c1ccc2c(c1)NC(c1ccncc1)S2 ; strain: H37Rv ; endpoint: MIC ; result: 1 µg/mL
C[C@H]1COc2c(N3CCN(C)CC3)c(F)cc3c(=O)c(C(=O)O)cn1c23 ; strain: 4S ; endpoint: MIC ; result: 0.5 µg/mL
Cc1ccc(C(=O)/C=C/c2ccccc2)c(F)c1 ; conditions: 14 d ; strain: H37Rv ; endpoint: MIC ; method: resazurin ; result: 32 µg/mL
Nc1ccc(S(=O)(=O)Nc2cnccn2)cc1 ; strain: H37Rv ; endpoint: MIC bound ; method: BACTEC ; result: ≤128 µg/mL
NNC(=O)c1ccncc1 ; strain: 7S ; endpoint: MIC ; result: 0.1 µg/mL
CC1CCCC(C)N1C(=O)c1noc2c1CC(C(C)(C)C)CC2 ; strain: 18b ; endpoint: MIC ; method: resazurin ; result: 8 µg/mL
O=C(N/N=C/c1ccccc1F)c1ccncc1 ; strain: H37Rv ; endpoint: MBC ; result: 0.4 µg/mL
Cc1nccn1CC1(c2ccc(Cl)cc2)OCCO1 ; strain: H37Rv ; tested at: 6.25 µg/mL ; endpoint: inhibition ; method: resazurin ; result: 13%
COc1ccc(-c2cs/c(=N\NC(=O)COc3cnccn3)n2-c2ccc(Cl)cc2)cc1 ; strain: H37Rv ; endpoint: MIC ; result: 11.6 µg/mL
[O-][n+]1c2ccccc2nc2cc(Cl)ccc21 ; strain: H37Rv ; endpoint: MIC bound ; method: BACTEC ; result: ≤12.5 µg/mL
COc1ccccc1NC(=O)OCC[NH+]1CCCC1 ; strain: My 331/88 ; endpoint: MIC ; result: >1000 µM
Cc1cc(C)cc(-n2c3nc(=O)n(C)c(=O)c-3nc3ccccc32)c1 ; strain: H37Rv ; endpoint: MIC bound ; method: BACTEC ; result: >12.5 µg/mL
CCCCCCOc1ccc(NC(=O)OCCN(C)C)cc1 ; strain: My 331/88 ; endpoint: MIC ; result: 32 µM
O=C(/C=C/c1ccc(F)cc1Cl)c1ccccc1 ; conditions: 21 d ; strain: H37Rv ; endpoint: MIC ; method: MTT ; result: 32 µg/mL
CCCCCCCCOc1ccc(NC(=O)OCCN(C)C)cc1 ; strain: My 331/88 ; endpoint: MIC ; result: 16 µM
CC(=O)NC[C@H]1CN(c2ccc(N3CCSCC3)c(F)c2)C(=O)O1 ; strain: H37Rv ; endpoint: MIC ; method: BACTEC ; result: 0.2 µg/mL
CCCOc1ccccc1NC(=O)OCCN(C)C ; strain: My 331/88 ; endpoint: MIC ; result: 1000 µM
CN(C)CCCn1ncc(Sc2cc([N+](=O)[O-])ccc2N)c(Cl)c1=O ; strain: H37Rv ; endpoint: MIC ; method: BACTEC ; result: ≥12.5 µg/mL
CO[C@H]1/C=C/O[C@@]2(C)Oc3c(C)c(O)c4c(O)c(c5c(c4c3C2=O)NC2(CCN(CC(C)C)CC2)N=5)=NC(=O)/C(C)=C\C=C\[C@H](C)[C@H](O)[C@@H](C)[C@@H](O)[C@@H](C)[C@H](OC(C)=O)[C@@H]1C ; strain: 2624 (rifampin-sensitive) ; endpoint: MIC ; result: 0.025 µg/mL
CC(C)N=c1cc2n(-c3ccc(Cl)cc3)c3ccccc3nc-2cc1Nc1ccc(Cl)cc1 ; strain: MDR8 ; endpoint: MIC ; method: broth dilution / resazurin ; result: 4 µg/mL
CC1(C)S[C@@H]2[C@H](NC(=O)[C@H](N)c3ccccc3)C(=O)N2[C@H]1C(=O)O ; strain: 1694 ; endpoint: MIC ; result: 92 µM
COc1cc(O)c2c(c1)OC1OCCC21 ; strain: H37Rv ; endpoint: MIC bound ; method: BACTEC ; result: >12.5 µg/mL
O=C(Oc1ccc(Cl)cc1C(=O)Nc1cccc(C(F)(F)F)c1)c1cnccn1 ; conditions: 21 d ; strain: multidrug resistant 7357/1998 ; endpoint: MIC ; result: 1 µM
CSC(=S)N(C)/N=C/c1cccc(C)n1 ; strain: H37Rv ; tested at: 128 µg/mL ; endpoint: inhibition ; method: BACTEC ; result: 58%
C/C(=N\NC(=O)c1ccncc1)c1cccc(C(F)(F)F)c1 ; strain: H37Rv ; endpoint: MIC ; result: 0.1 µg/mL
Cc1ccc2c(c1)[n+]([O-])c1c3ccccc3[nH]c1[n+]2[O-] ; strain: H37Rv ; tested at: 6.25 µg/mL ; endpoint: inhibition ; method: resazurin ; result: 71%
O=C1c2ccccc2C(=O)c2cc(C[P+](c3ccccc3)(c3ccccc3)c3ccccc3)ccc21 ; strain: FJ05349 ; mutations: Clinically sensitive strain ; endpoint: MIC ; method: resazurin ; result: 1 µg/mL
CN1CCCNCCN(CCc2ccccn2)CCCN(C)CC1 ; strain: H37Rv ; endpoint: MIC bound ; method: resazurin ; result: >6.25 µg/mL
CCCn1c(-c2nnc(C(C)C)o2)cc2ccccc21 ; strain: Clinical isolate ; endpoint: MIC ; method: resazurin ; result: 16 µg/mL
COC(=O)C(=O)c1c(C(=O)OC)nc2[nH]n(-c3ccccc3)c(=O)c2c1Cc1ccccc1 ; strain: H37Rv ; endpoint: MIC bound ; method: BACTEC ; result: >12.5 µg/mL
O=C(N/N=C/c1cccc(C(F)(F)F)c1)c1ccncc1 ; strain: H37Rv (ciprofloxacin-resistant) ; endpoint: MIC ; result: 3.9 µg/mL